This is a selection; strong and weak results do not stand in their true shares. Calls of active or inactive are those of the source.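 The calls were made as follows: active = highest replicate inhibition at or above 60% at 9 µM, even if other replicates fall short; inactive = all replicates below 60% inhibition.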

In this experiment the test system is Kaposi's sarcoma herpesvirus LANA C-terminal domain (residues 932-1162) DNA binding. Kind of experiment: inhibitors of KSHV C-LANA binding to DNA, primary screen, biochemical, fluorescence polarization, FAM-LBS DNA, MBP-C-LANA, single point (AID 504423).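 Also: 0% = neutral control wells and 100% = 4 µM acridine orange control.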 To be noted: at 9 µM, stronger effect = higher value.
On to `N#Cc1ccc(C(=O)NCC2(N3CCCCC3)CCCCC2)cc1`, for which the inhibition (in general, the drop in the measured response relative to a control, in per cent) was inactive: -0.458%.
With `CC(C)(C)OC(=O)N1CCC(N(C(=O)c2ccccc2)c2ccc(Cl)cc2)CC1`, the inhibition was inactive: 1.19%.
`CN(C)C1(CNC(=O)c2cccc(C#N)c2)CCCCC1`: the inhibition was inactive: 2.66%.
Take `CCCN1CCC(Nc2cc(OC)cc(OC)c2)CC1`: the inhibition was inactive: 39.1%.
Consider `Cc1cc(N(CCCl)CCCl)ccc1C=O`, for which the inhibition was inactive: -0.506%.
Under `c1ccc(CN2CCC(Nc3ccccc3)CC2)cc1` stands inactive: 1.42%; under `COc1ccc(C(=O)NCC2(N3CCOCC3)CCCCC2)cc1OC`, inactive: 0.667%.
Next, `COc1cc(C(=O)NCC2(N3CCOCC3)CCCCC2)cc(OC)c1C`: inactive: 2.21%; `O=C(NCC1(N2CCOCC2)CCCCC1)c1cc(Br)ccc1Cl`: inactive: -0.213%; `O=C(OC1CN2CCC1CC2)C1c2ccccc2C=Cc2ccccc21` (centres undefined): inactive: 2.97%.
Next, `CCOC(=O)N1CCC(Nc2ccc(C)cc2)CC1`: inactive: -0.399%; `N/C(=N\O)c1c(N)no[n+]1[O-]`: inactive: -0.635%.
Turning to `O=C(O)C1(Nc2ccccc2)CCN(Cc2ccccc2)CC1`, the inhibition was inactive: -0.334%.
As for `CC(C)(C)OC(=O)N1CCC(Nc2ccccc2)CC1`, the inhibition is inactive: 0.607%.
With `CCCOc1ccc(C(=O)NCC2(N(C)C)CCCCC2)cc1`, the inhibition is inactive: -0.447%.
In the case of `CN1CCC(Nc2ccc(F)c(Cl)c2)CC1`, the inhibition was inactive: -1.84%.
Take `CCOc1ncccc1C(=O)NCC1(N2CCOCC2)CCCCC1`: the inhibition was inactive: 1.09%.
Next, `CN1CCC(Nc2ccc(Cl)cc2)CC1`: inactive: 2.46%; `COc1cccc(C(=O)N(c2cc(C)cc(C)c2)C2CCN(C(=O)OC(C)(C)C)CC2)c1`: inactive: 0.719%; `COc1cc(OC)cc(C(=O)NCC2(N3CCOCC3)CCCCC2)c1`: inactive: -1.13%.
With `CCC(CO)(C(=O)OC1CN2CCC1CC2)c1ccccc1` (centres undefined), the inhibition was inactive: -0.925%.
As to `Fc1ccccc1NC1CCN(Cc2ccccc2)CC1`, the inhibition was inactive: 1.89%.
As for `Cc1ccc(C(=O)NCC2(N3CCCCC3)CCCCC2)o1`, the inhibition is inactive: -2.51%.
For `Cc1ccc(NC2(C#N)CCN(Cc3ccccc3)CC2)cc1`, the inhibition is inactive: 1.98%.
For the molecule `CC(=O)N(c1ccccc1)C1CCNCC1`, the inhibition is inactive: -0.425%.
Next, `COc1cc(OC)cc(C(=O)NCC2(N3CCCCC3)CCCCC2)c1`: inactive: 0.099%; `CN(C)c1ccc(C(=O)NCC2(N3CCCCC3)CCCCC2)cc1`: inactive: -0.153%; `Cn1c(=O)[nH]cc(N(CCCl)CCCl)c1=O`: inactive: 1.97%.
Under `O=C(NCC1(N2CCCCC2)CCCCC1)c1ccco1` stands inactive: -0.116%.

Values taken from PubChem BioAssay AID504423 (Broad Institute, 2011).
